Molecular target: BoNT/A LC (Clostridium botulinum, UniProt P0DPI0)

Amino acid sequences for entries named in this document (tags omitted). Residues count along the entry.
UniProt P0DPI0, 2-448 limits assumed: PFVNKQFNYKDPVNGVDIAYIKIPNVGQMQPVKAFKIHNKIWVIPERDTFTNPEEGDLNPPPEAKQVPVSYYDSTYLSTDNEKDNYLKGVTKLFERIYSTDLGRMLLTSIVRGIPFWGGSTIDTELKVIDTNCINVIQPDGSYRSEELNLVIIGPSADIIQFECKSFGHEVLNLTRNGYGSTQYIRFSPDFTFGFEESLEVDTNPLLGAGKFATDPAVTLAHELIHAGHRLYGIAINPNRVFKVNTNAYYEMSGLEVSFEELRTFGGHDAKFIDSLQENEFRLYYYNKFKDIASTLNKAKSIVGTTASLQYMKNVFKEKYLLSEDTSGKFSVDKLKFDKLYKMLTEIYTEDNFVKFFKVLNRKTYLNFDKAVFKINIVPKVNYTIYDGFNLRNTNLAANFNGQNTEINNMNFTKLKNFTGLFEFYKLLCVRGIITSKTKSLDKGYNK

## Nc1ccc(S(=O)(=O)Nc2ncccn2)cc1 [sulfadiazine]
  inhibition of BoNT/A LC (in words): no inhibition was observed

From patent publication US7574340B2 (priority 2003, dated 2009)
